## Percent effect of library compounds

Values are the deposited “Percent Effect”, in %.
The record does not define 0% and 100%; most values in the screen are far below 50% and negative numbers occur (in some assays of this library far below -100).
Many other results are left out here, so strong results are more common than in the screen.

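Phenotypic screen: M. tuberculosis growth, glucose 7H9 medium, 3 days; the read-out is not stated. Concentration: 500 µM. The record gives no direction; compounds that gave an IC50 in retests scored well above the rest, so higher reads as more growth inhibition. Of about 18,000 compounds tested this way, about 1,400 (7.9%) reached 50% or more in at least one test.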

SMILES | percent effect
COc1ccc(OC)c(C(O)CN2CCNC(=O)C2)c1 (configuration not stated) | 23.22%
Cc1ccc(CN)n1C | 65.5%
CN(C)c1cc(CNC(=O)C2CCCO2)ccn1 (configuration not stated) | 7.874%
CN(C)CCOc1ccccc1CN | 50.95%
CC(=O)N1CCN(CCSc2ccccc2)CC(O)C1 (configuration not stated) | 32.26%
Nc1cnn(Cc2ccccn2)c1 | 50.97%
CC(C)(N)c1nc2c(c(=O)[nH]1)CCCC2 | 10.82%
Cc1ccc(-c2noc(C(C)N)n2)cc1F (configuration not stated) | 69.02%
NCCc1ccc(C(F)(F)F)cn1 | 28.12%
CCC(CO)NC(=O)Nc1nnc(-c2ccccn2)s1 (configuration not stated) | 5.067%
CC1(C)CCNCCS1(=O)=O | 0.07775%
OCCC1CCCN1 (configuration not stated) | 9.736%
COc1c(N)c(C)nn1C | 13.86%
CCOc1ccc(Cn2cc(Br)ccc2=O)nc1 | 32.72%
CC(C(=O)Nc1ccc2c(c1)CCC2)S(C)(=O)=O (configuration not stated) | 27.27%
CCN(C)S(=O)(=O)N1CCC[C@H]1CO | 9.402%
CC[C@@H](O)CN1CCN(c2cc(OC)ccn2)CC1 | 23%
CN(C)C1CN(C(=O)Nc2cccc(OCCF)c2)C1 | 6.473%
O=C(NCC1CCCNC1)c1ccccc1 (configuration not stated) | 30.63%
COCCN1CCN(Cc2ccc(C#N)o2)CC1=O | 8.084%
Cc1nnc(CN2CCN(CC(O)C(C)(C)C)CC2)o1 (configuration not stated) | 8.189%
Cc1cccnc1NCCNC1CSCCSC1 | 65.28%
COc1ccccc1S(=O)(=O)Nc1cccnc1O | 25.13%
O=C(NCC(O)C1CCCCC1)[C@@H](O)c1ccccc1 (some centres not stated) | 53.96%
O=c1oc(-c2ccccc2)nn1CN1CCCCC1 | 1.446%
OCc1cn(CC2CC2)nn1 | -5.302%
CC1(C)NCCC1O (configuration not stated) | -0.2476%
COc1cccn(CC(=O)N2CCCC(N)CC2)c1=O (configuration not stated) | -8.723%
C[C@@H]1CN(Cc2ccccc2)C[C@@H](C)C1=O | 7.801%
NCc1nc2c(s1)CCCC2 | 14.55%
O=C(Cc1ccccc1)OCCN1CCOCC1 | 7.931%
Cn1cc(CNCC2COc3ccccc3O2)cn1 (configuration not stated) | 29.09%
Nc1nnc(SCC(=O)NCCOc2ccccc2)s1 | 8.457%
O=S(=O)(NCC(O)COCc1ccco1)c1cccs1 (configuration not stated) | 37.16%
Nc1ncn(Cc2cccc(Cl)c2)n1 | 21.6%
CN(CCCOc1ccc(C#N)cc1)CC(N)=O | 9.33%
CCN(C(=O)CSC(F)(F)F)C1CCS(=O)(=O)C1 (configuration not stated) | -4.405%
CN(C)c1ccc(CN2CCN(C)C(CO)C2)cn1 (configuration not stated) | 8.609%
CC(N)(CO)c1ccc(Br)cc1 (configuration not stated) | 19.74%
Cc1cnn(CC(C)NCCC(=O)NC(C)C)c1 (configuration not stated) | -9.714%
O=C(NCCCOC(F)F)NCc1cccnc1 | -1.799%
Cn1ccnc1CSCCN1CCOCC1 | 4.44%
O=C(c1cc(C2CC2)n[nH]1)N1CCC2(CCCO2)CC1 | 51.5%
Cc1ccc(C2CCCN2CCS(C)(=O)=O)s1 (configuration not stated) | 61.6%
COc1cccc(C(=O)NC2CCN(C)CC2)c1OC | 8.422%
NC(=O)CSc1nc(Cc2cccs2)n[nH]1 | 19.05%
CN(C)c1cc(CNc2ncnc3[nH]ncc23)ccn1 | 31.52%
COc1ccc(Cl)cc1S(=O)(=O)n1cncn1 | -1.443%
NCc1cccc(-c2nc(-c3ccncc3)no2)c1 | 50.09%
COCCN1CCCN(Cc2ccc(C)o2)CC1=O | -6.875%
Cn1c(=O)[nH]c2ccc(F)cc21 | 13.61%
Cc1cccc(OCC(=O)NCC2CCNCC2)c1 | 24.61%
CC(C)Oc1ccc(C(=O)NCCNC(C)(C)C)cn1 | 11.56%
Cc1nn(CCO)c(NCc2ccc(F)cc2)c1C | 33.81%
CC(C(=O)N(C)Cc1cc(Br)cs1)n1cncn1 (configuration not stated) | 36.82%
CN(C)C(=O)c1ccc(Cl)c(S(=O)(=O)N2CCCC2)c1 | 28.48%
NC(=O)c1cc(S(=O)(=O)NCCCc2ccco2)cs1 | 12.36%
CS(=O)(=O)NCC(=O)Nc1ccc(-n2cccn2)cc1 | 22.18%
CCOc1ccc(C(=O)N2CCC(N)CC2)cc1 | 11.09%
COc1ccc(C(=O)NCc2ncnn2C)cc1Br | 63.88%
CCCn1nnnc1NCc1ccc2c(c1)OCO2 | 45.92%
Cc1ocnc1C(=O)N1CCC(O)c2ccccc2C1 (configuration not stated) | 7.556%

Some entries from above, unchanged:

SMILES	percent effect
O=C(Cc1ccccc1)OCCN1CCOCC1	7.931%
COc1cccc(C(=O)NC2CCN(C)CC2)c1OC	8.422%
CN(C)c1ccc(CN2CCN(C)C(CO)C2)cn1 (configuration not stated)	8.609%
CCC(CO)NC(=O)Nc1nnc(-c2ccccn2)s1 (configuration not stated)	5.067%

The values are deposited in ChEMBL (CHEMBL3988442, “University of Dundee, Small-Polar-MMV Screening Library” (2021)).